A mixed list of measured activities; the numbers were collected in NIAID ChemDB.

All rows: whole-cell or culture tests

Blank or dashed fields: not listed here.

| smiles | read by | dose | strain | read-out | species | value |
|---|---|---|---|---|---|---|
| O=C(NN=Cc1ccc([N+](=O)[O-])cc1)c1snnc1C(F)(F)F | agar diffusion / agar | 100 µg/mL | NCIM 3462 | zone | Candida rugosa | 0 mm |
| CCC(C)n1ncn(-c2ccc(N3CCN(c4ccc(OC[C@H]5CO[C@](Cn6cncn6)(c6ccc(Cl)cc6Cl)O5)cc4)CC3)cc2)c1=O | broth dilution | - | fluconazole-sensitive | MIC50 | Candida spp. | 0.13 µg/mL |
| CC(=NNC(=O)c1snnc1C(F)(F)F)c1ccccn1 | agar diffusion / agar | 150 µg/mL | NCIM 3462 | zone | Candida rugosa | 0 mm |
| O=C(CCn1ccnc1)c1ccc2ccccc2c1 | broth dilution | - | RTCC1248 | MIC | Candida guilliermondii | 64 µg/mL |
| C[C@@H](N1CCN(Cc2cn(-c3ccc(F)cc3)c3cc(Cl)ccc23)CC1)[C@](O)(Cn1cncn1)c1ccc(F)cc1F | resazurin | - | ATCC 90028 | MIC80 | Candida albicans | 0.125 µg/mL |
| CC(C)(O)c1cn(-c2ccc([N+](=O)[O-])cc2)nn1 | broth dilution | 2048 µg/mL | URM 4263 | inhibition | Candida krusei | 0% |
| C[C@@H](N1CCN(Cc2cn(Cc3ccc(Cl)cc3Cl)c3ccccc23)CC1)[C@](O)(Cn1cncn1)c1ccc(F)cc1F | resazurin | - | ATCC 90028 | MIC80 | Candida albicans | 0.125 µg/mL |
| OC(CCn1ccnc1)c1ccc(Br)cc1 | broth dilution | - | RTCC 1074 | MIC | Candida kefyr | >64 µg/mL |
| COc1ccc(N2C(=O)C[C@@H](C)C2=O)cc1 | broth dilution / turbidity | - | CCC 134-2000 | MIC | Candida lusitaniae | 62.5 µg/mL |
| O=C1S/C(=C\c2ccoc2)C(=O)N1CC(O)(Cn1nccn1)c1ccc(F)cc1F | - | - | Fluconazole-resistant 100 | MIC80 | Candida colliculosa | 37 µg/mL |
| CC1CC(=O)N(c2ccc(Cl)cc2)C1=O | broth dilution / turbidity | - | CCC 134-2000 | MIC | Candida lusitaniae | 250 µg/mL |
| O/N=C\c1ccccc1O | - | - | - | MIC100 | Candida lipolytica | 3600 µM |
| CC(C)(O)c1cn(-c2cccc3ccccc23)nn1 | broth dilution | 2048 µg/mL | URM 4261 | inhibition | Candida parapsilosis | 0% |
| O=C(NN=Cc1ccccc1)c1snnc1C(F)(F)F | agar diffusion / agar | 100 µg/mL | NCIM 3462 | zone | Candida rugosa | 0 mm |
| CC1CC(=O)N(Cc2ccccc2)C1=O | broth dilution / turbidity | - | CCC 134-2000 | MIC | Candida lusitaniae | 125 µg/mL |
| O=C(CCn1ccnc1)c1ccc(Br)cc1 | broth dilution | - | RTCC 1377 | MIC | Candida guilliermondii | 64 µg/mL |
| C=CCc1ccc(OC)c(OC)c1 | turbidity | - | 3261 | MIC90 | Candida tropicalis | 350 µg/mL |
| O=C(CCn1ccnc1)c1cccc(C(O)c2ccc(Br)cc2)c1 | broth dilution | - | RTCC1248 | MIC | Candida guilliermondii | 64 µg/mL |
| N=C(N)c1ccc2nc(-c3ccc(-c4nc5ccc(C(=N)N)cc5[nH]4)[nH]3)[nH]c2c1 | - | - | Isolate 1866 | MFC | Candida albicans | 12.5 µg/mL |
| C[C@@H](N1CCN(Cc2cn(Cc3ccc(F)cc3F)c3cc(N=[N+]=[N-])ccc23)CC1)[C@](O)(Cn1cncn1)c1ccc(F)cc1F | resazurin | - | ATCC 36082 | MIC80 | Candida albicans | 0.125 µg/mL |
| CC1CC(=O)N(CCCCc2ccccc2)C1=O | broth dilution / turbidity | - | CCC 134-2000 | MIC | Candida lusitaniae | 125 µg/mL |
| O/N=C\c1ccccc1Cl | - | - | - | MIC | Candida lipolytica | 1410 µM |
| C[C@@H](N1CCN(Cc2cn(Cc3ccc(Cl)cc3)c3c(Cl)cccc23)CC1)[C@](O)(Cn1cncn1)c1ccc(F)cc1F | resazurin | - | ATCC MYA-1003 | MIC80 | Candida albicans | >128 µg/mL |
| Cc1ccc(C(O)c2cccc(C(=O)CCn3ccnc3)c2)cc1 | broth dilution | - | RTCC 1019 | MIC | Candida kefyr | 1 µg/mL |
| C[C@@H](N1CCN(Cc2cn(Cc3ccc(Cl)cc3)c3c(F)cccc23)CC1)[C@](O)(Cn1cncn1)c1ccc(F)cc1F | resazurin | - | ATCC 64548 | MIC80 | Candida albicans | 0.125 µg/mL |
| CC(C)(O)c1cn(-c2ccc3ccccc3c2)nn1 | broth dilution | 2048 µg/mL | URM 4986 | inhibition | Candida albicans | 0% |
| COc1ccc(/C=N/O)cc1 | - | - | - | MIC100 | Candida lipolytica | 6620 µM |
| O=C(NN=C1CCCCCC1)c1snnc1C(F)(F)F | agar diffusion / agar | 100 µg/mL | NCIM 3462 | zone | Candida rugosa | 0 mm |
| C[C@@H](N1CCN(Cc2c[nH]c3ccccc23)CC1)[C@](O)(Cn1cncn1)c1ccc(F)cc1F | resazurin | - | ATCC MYA-1003 | MIC80 | Candida albicans | 128 µg/mL |
| O/N=C\c1ccccc1 | - | - | - | MIC100 | Candida lipolytica | 8260 µM |
| COc1ccc(N2C(=O)CC(C)C2=O)cc1 | broth dilution / turbidity | - | CCC 134-2000 | MIC | Candida lusitaniae | 125 µg/mL |
| O=[N+]([O-])c1ccc(/C=N\O)cc1 | - | - | - | MIC100 | Candida famata | 3010 µM |
| CC1CC(=O)N(CCc2ccccc2)C1=O | broth dilution / turbidity | - | CCC 134-2000 | MIC | Candida lusitaniae | 125 µg/mL |
| C[C@@H](N1CCN(Cc2cn(Cc3ccc(F)cc3F)c3ccc(C#N)cc23)CC1)[C@](O)(Cn1cncn1)c1ccc(F)cc1F | resazurin | - | ATCC MYA-1003 | MIC80 | Candida albicans | 2 µg/mL |
| OC(CCn1ccnc1)c1cccc(C(O)c2ccc(Cl)c(Cl)c2)c1 | broth dilution | - | RTCC1248 | MIC | Candida guilliermondii | >64 µg/mL |
| C=CCn1cc(CN2CCN([C@H](C)[C@](O)(Cn3cncn3)c3ccc(F)cc3F)CC2)c2ccc(Cl)cc21 | resazurin | - | ATCC 36082 | MIC80 | Candida albicans | 0.125 µg/mL |
| Cc1ccc(-n2cc(C(C)(C)O)nn2)cc1C | broth dilution | 2048 µg/mL | URM 3624 | inhibition | Candida parapsilosis | 0% |
| O=C(NN=Cc1ccc(Br)cc1)c1snnc1C(F)(F)F | agar diffusion / agar | 100 µg/mL | NCIM 3462 | zone | Candida rugosa | 0 mm |
| C[C@@H](c1ncncc1F)[C@](O)(Cn1cncn1)c1ccc(F)cc1F | broth dilution | - | fluconazole-sensitive | MIC50 | Candida spp. | 0.016 µg/mL |
| O/N=C\c1ccc(O)cc1 | broth dilution | - | - | MIC100 | Candida famata | >7290 µM |
| CC1CC(=O)N(c2ccc([N+](=O)[O-])cc2)C1=O | broth dilution / turbidity | - | CCC 134-2000 | MIC | Candida lusitaniae | 125 µg/mL |

Repeating the final 5 entries:

{"smiles": "Cc1ccc(-n2cc(C(C)(C)O)nn2)cc1C", "read by": "broth dilution", "dose": "2048 µg/mL", "strain": "URM 3624", "read-out": "inhibition", "species": "Candida parapsilosis", "value": "0%"}
{"smiles": "O=C(NN=Cc1ccc(Br)cc1)c1snnc1C(F)(F)F", "read by": "agar diffusion / agar", "dose": "100 µg/mL", "strain": "NCIM 3462", "read-out": "zone", "species": "Candida rugosa", "value": "0 mm"}
{"smiles": "C[C@@H](c1ncncc1F)[C@](O)(Cn1cncn1)c1ccc(F)cc1F", "read by": "broth dilution", "strain": "fluconazole-sensitive", "read-out": "MIC50", "species": "Candida spp.", "value": "0.016 µg/mL"}
{"smiles": "O/N=C\\c1ccc(O)cc1", "read by": "broth dilution", "read-out": "MIC100", "species": "Candida famata", "value": ">7290 µM"}
{"smiles": "CC1CC(=O)N(c2ccc([N+](=O)[O-])cc2)C1=O", "read by": "broth dilution / turbidity", "strain": "CCC 134-2000", "read-out": "MIC", "species": "Candida lusitaniae", "value": "125 µg/mL"}

Lines come from different laboratories, so protocols vary. Percent inhibition refers to the dose given; in toxicity tests it is the harm to the cells. Zones are inhibition diameters on agar. MIC50, MIC90 and the like: level of inhibition, or share of isolates inhibited.